This note sets out measurements from patent US20260069689A1, “ANTI-SARS-COV-2-SPIKE GLYCOPROTEIN ANTIBODIES AND ANTIGEN-BINDING FRAGMENTS” (published 2026).

Experiment in all cases: cell-based or functional assay
The target of experiment [1] is SARS-CoV-2 S protein variant BA.1 (Omicron) (SARS-CoV-2).
For experiment [2], the target named is SARS-CoV-2 S protein variant BA.1.1 (Omicron) (SARS-CoV-2).
Experiment [3] concerns the target SARS-CoV-2 S protein variant BA.2 (Omicron) (SARS-CoV-2).
Experiment [4] addresses SARS-CoV-2 S protein variant BA.2.12.1 (Omicron) (SARS-CoV-2).

In general, IC50 refers to the concentration needed to halve the response being measured. The term IC90 denotes the point of the concentration-response curve where the effect stands at 90%. Low readings indicate greater potency, high ones weaker potency. With mAb10933 (Casirivimab) (antibody), the Fold Change in IC50 over Ref Virus is above 1730 fold in experiment [1], above 1340 fold in experiment [2], 462 fold in experiment [3] and above 702 fold in experiment [4]. Moreover, the concentration for half-maximal inhibition (IC50) in experiment [3] worked out at 6.8 nM. Further, in experiment [3], the IC90 came to 80.4 nM.
